Data from patent publication US20230382979A1 (ADAPTIVE BIOTECHNOLOGIES, published 2023).

Target: K417N_E484K_N501Y_RBD (SARS-CoV-2)
Test: dose-response ELISA on K417N_E484K_N501Y_RBD

B1: antibody 2729 (antibody, V domains shown)
VH: QVTLKESGPVLVKPTETLTLTCTVSGFSLSNARMGVSWIRQPPGKALEWLAHIFSNDEKSYSTYLKSRLTISKDSSKSQVVLTMTIMDPVDTATYYCARTAGRYSSRWGHYYYYMDVWGKGTTVTVSS
VL: NFMLTQPHSVSESPGKTVTISCTGSNGSIASNFMQWYQQRPGSAPTIVIYEDNQRPSGVPDRFSGSIDGSSNSASLTISGLKTEDEADYYCQSYDSSDSDLGVFGGGTKLTVL
EC50 (read off the curve): ~10 ng/mL
